These results are taken from PubChem BioAssay AID1949 (Southern Research Institute, 2009).

The structures appear in SMILES notation. This is a selection; strong and weak results do not stand in their true shares. Records with an inconclusive call do not appear. The source made the active and inactive calls. How the calls were made is not given here.

The nature of the assay: Confirmatory growth inhibition assay against Mycobacterium tuberculosis H37Rv, potency (AID 1949).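 Further: bacteria grown 7 days with compound before Alamar blue readout; 0% = untreated bacteria wells and 100% = bacteria with saturating antibiotic.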 The note with it: M. tuberculosis H37Rv growth inhibition; hits give high values; concentration not given here.
One may read the inhibition as the share of the control response that was lost under treatment. With `Cc1ccccc1OCC(=O)OC1CN2CCC1CC2` (stereo unspecified), the inhibition is inactive: 0%.
In the case of `O=C(CCc1ccccc1)OC1CN2CCC1CC2` (stereo unspecified) it was inactive: 5.28%.
In the case of `Cc1cccc(C(=O)OC2CN3CCC2CC3)c1` (stereo unspecified) it was inactive: 0%; in that of `CN1CCCC(OC(=O)C(c2ccccc2)c2ccccc2)C1` (stereo unspecified), inactive: 1.88%; in that of `O=C(OC1CN2CCC1CC2)c1cccc(Cl)c1` (stereo unspecified), inactive: 0%.
In the case of `COc1ccc(OCC(=O)OC2CN3CCC2CC3)cc1` (stereo unspecified) it was inactive: 0%.
